From PMC7823712, “Synthesis and Antiplasmodial Activity of Novel Bioinspired Imidazolidinedione Derivatives” (Biomolecules, 2020)

Test system: P. falciparum W2 (CQ-resistant) strain
Test: P. falciparum drug susceptibility assay (pLDH), W2 strain
Assay type: cell-based, Plasmodium falciparum
Conditions: RI = IC50 CQ resistant P. falciparum strain/IC50 CQ sensitive P. falciparum strain
Procedure: Plasmodium falciparum cultures were carried out according to Trager and Jensen, with slight modifications. The CQ-susceptible strain D10 and the CQ-resistant strain W2 were maintained at 5% hematocrit (human type A-positive red blood cells) in RPMI 1640 (EuroClone, Milan, Italy) medium with the addition of 1% AlbuMax (Invitrogen, Milan, Italy), 0.01% hypoxanthine, 20 mM Hepes, and 2 mM glutamine. All the cultures were maintained at 37 °C in a standard gas mixture consisting of 1% O2, 5% CO2, and 94% N2. Compounds were dissolved in DMSO and then diluted with medium to achieve the required concentrations (final DMSO concentration < 1%, which is non-toxic to the parasite). Drugs were placed in 96-well flat-bottomed microplates starting from the concentration of 20 µg/mL and 8 serial two-fold dilutions were made. Asynchronous cultures with parasitaemia of 1–1.5% and 1% final hematocrit were aliquoted into the plates and incubated for 72 h at 37 °C. Parasite growth was determined spectrophotometrically (OD650) by measuring the activity of the parasite lactate dehydrogenase (pLDH), according to a modified version of the method of Makler in control and drug-treated cultures. The antimalarial activity is expressed as 50% inhibitory concentrations (IC50); […]

Molecule `CCN(CC)CCCC(C)Nc1ccnc2cc(Cl)ccc12` (stereo not shown) [CQ, Chloroquine, reference compound] has an RI of 13.44.
